Laboratory results from patent US20120207760A1, “Compositions and Methods for the Therapy and Diagnosis of Influenza” (THERACLONE SCIENCES, published 2012).
Numbering of substitutions follows the chain as printed.

B1: TCN-542 (5079_A16) (antibody, V domains shown)
VH: QVQLQESGPGLVKPSQTLSLTCTVSGGSISSGNYYWNWVRQHPGKGLEWIGYIYYRGSTFYNPSLKSRVTISIDTSKNQFSLRLSSVTAADTAVYYCAKDTRSSLDNYQYGMDVWGQGTTVTVSS
VL: QTVVTQEPSLTVSPGGTVTLTCASSTGAVTSSYFPNWFQQKPGQAPRPLIYSTTIRHSWTPARFSGSLLGGKAALTLSGVQPEDEADYYCLLYSGGDPVAFGGGTKLTVL
B2: TCN-553 (5261_C18) (antibody, V domains shown)
VH: QVQVVQSGTEVKKPGSSVKVSCQTSGGRFMSYAITWVRQAPGQGLEWMGGIVPVFGTANYAQKFQGRVTITTDDSTRTAYMELSSLRSEDTAVYYCGFRYGSGYGFDSWGQGTLVTVSS
VL: EIVLTQSPGTLSLSPGERATLSCRASQSVSSSYLAWYQKKPGQAPRLLIYGASTRATGIPDRFTGSGSGTDFTLSISRLEPEDFAVYYCQHFGTSVFTFGGGTKVEIK
B3: TCN-555 (5246_L16) (antibody, V domains shown)
VH: QVQLVQSGAEVKRPGSSVKVSCTASGGIFRKNAISWVRQAPGQGLEWMGGIIAVFNTANYAQKFQNRVKITADESGNTAYMELSSLTSDDTAVYYCASHPKYFYGSGSYPDFWGQGTLVTVSS
VL: QSALTQPRSVSGSPGQSITISCTGGSSDIGASNSVSWYQQHPGKAPKLVIFDVTERPSGVPHRFSGSKSGNTASLTVSGLQPDDEADYFCCAYGGKYLVVFGGGTKVTVL
B4: TCN-528 (5087_P17) (antibody, V domains shown)
VH: QVQLVQSGSEVKKPGASVKVSCKASGYTFTNYDINWIRQAPGQGLEWMGWINPNSGTTGSAQRFQGRVTITVDTSITTVYMELSSLRSDDTAIYYCARGRELLRLQHFLTDSQSERRDCFDPWGQGTLVTVSS
VL: DIQMTQSPSSLSASVGDRVTITCRANQDIGIYLNWYQQNPGKVPKLLLHGASSLQGGVPSRFSASGSGTDFTLTIHSLQPEDLATYYCQQSRRLPYTFGQGTRVELK
B5: TCN-527 (5086_C06) (antibody, V domains shown)
VH: QVQLQESGPGLVKPSETLSLNCAVSGGSISNYYWSWIRQPPGKGLEWIGYISYNGRPKYNPSLTSRVTISVDTSKDQFSLELRSVTAADTALYYCARETRFGELLSPYDAFEIWGQGTMVTVSS
VL: DIQMTQSPSSLSASVGDRVTMTCRASQNIRSYLNWYQQRPGTAPKLLIYAASTLHSGVPSRFSGGGSGTDFTLTINNLQPEDFASYYCQQSYDNPQTFGQGTKVEIK
B6: TCN-550 (5096_F06) (antibody, V domains shown)
VH: QVQLQESGPGLVKPSETLSLTCTVSGASINSHYWSWIRQPPGKGLEWIGYVYYSGSTTYNPSLKSRVTLSVDTSKNQFSLNLSSVTAADTAFYYCARHPYDVLTGSGDWFDPWGQGTLVTVSS
VL: SYVLTQAPSVSVAPGQTARITCGGNAIGSKKVHWYQHKAGQAPVLVVYDDTDRPSGIPERFSGSNSWSTATLTINRVEAGDEADYYCQVWDFTIDHVVFGGGTKLTVL
B7: TCN-532 (5262_H18) (antibody, V domains shown)
VH: QVQLQESGPGLVKPSETLSLTCTVSGGSVSSETYYWSWIRQPPGKGLEWIGYIYYIGNTDYRPSLKSRVTISLDTSKNQFSLKLSSVTAADTAVYYCARGAYYDSSGYPAFYIWGQGTMVTVSS
VL: QSVLTQPPSVSGAPGQRVTISCTGSSSNIGSDYDVHWYKQLPGTAPKLLIFGNSNRPSGVPDRFSGSKSGTSASLAITGLQAEDEADYYCQSYDSSLSGFHVFGSGTKVTVL
B8: TCN-536 (5095_N01) (antibody, V domains shown)
VH: QVQLQQWGAGLLKPSETLSLTCAVYGGSFSVSGYYWSWIRQPPGRGLEWIGEISHGGSTNYNPSLKSRVTISVDTTKNQFSLRLSSVTAADTAVYYCARGTDPDTEVYCRVGNCAAFDYWGQGSLVTVSS
VL: EIILAQSPGTLSLSPGERATLSCRASQFVSTRSLAWYQQRPGQAPRLLIYGASSRATGIPDRFSGSGSGTDFTLTISRLEPEDFAVYYCQHYGYSPRYAFGQGSKVEIK
B9: TCN-554 (5277_M05) (antibody, V domains shown)
VH: QVQLVQSGADLKKPGASVKVSCKASGYTFTDYYIHWVRQAPGQGLEWMGWINPESGDTKYAQKFQGRVTMTRDTSITTAYMELGRLRSDDTAVYYCARDVSTTWSWFAPWGQGTLVTVSS
VL: DIVMTQSPDSLAVSLGERATINCRSSQSIFHNSNNENYLAWYQQKPGQPPKLLIYWASTRESGVPDRFSGSGSGTDFTLTISSLQAEDVAVYFCQQYYNAPLTFGGGTKVEIK
B10: TCN-539 (5056_A08) (antibody, V domains shown)
VH: QVQLVESGGGVVQPGRSLRLSCAASEITFITYAMHWVRQAPGKGLEWVALISDDGSNKFYADSVKGRFTISRDNSKNTLYLQMNSLRAEDTAAYYCAREGVYFDSGTYRGYFDYWGQETLVTVSS
VL: EIVLTQSPATLSLSPGERATLSCRASQSVSSYLAWYQQKPGQAPRLLIYDASNRATGIPARFSGSGSGTDFTLTISSLEPEDFAVYYCQQRSHWPPITFGQGTRLEIK
B11: TCN-563 (5237_B21) (antibody, V domains shown)
VH: B3 VH with V5A, N66G, T87R
VL: B3 VL with I18V, G25S, I29V, F51Y, D83E
B12: TCN-543 (5081_G23) (antibody, V domains shown)
VH: QVHLVQSGAEVRKPGDSVKVSCKTSGYTFSTYPVAWVRQVPGQGLEWMGWISTYNGNTNFAQNFQGRVTLTTDTTTNTAYMEVRSLKFDDTAVYYCARVEGSYRDFWNNQNRFDPWGQGTLVTVSS
VL: SYVLTQPPSVSVAPGQTARISCGGSNIGGKSVHWYQQKPGQAPVLVVYDDSGRPSGIPERFSGSNSGDTATLTISRVEAGDEADYFCQVWDNFGGVFGTGTKVTVL

Molecular target: recombinant soluble homotrimeric HA of A/Egypt/3300-NAMRU3/08 - H5N1 (Influenza A virus …)
Experiment: micro-array; captured IgG, V5-tagged trimeric HA

Compared with B1, B2 is higher in “Trimeric HA Binding: RLU” value: 14800 RLU for the first, 19500 RLU for the second.

For B3, the “Trimeric HA Binding: RLU” value was 20000 RLU.

Molecular target: recombinant soluble homotrimeric HA of A/chicken/Vietnam/NCVD-016/08 - H5N1 (Influenza A virus …)
Experiment: micro-array; captured IgG, V5-tagged trimeric HA

First: B1
Second: B2
The “Trimeric HA Binding: RLU” value of the first is lower: 5460 RLU for the first, 34700 RLU for the second.

With B3 the “Trimeric HA Binding: RLU” value was 35200 RLU.

Molecular target: recombinant soluble homotrimeric HA of A/Hong Kong/156/97 - H5N1 (Influenza A virus A/Hong Kong/156/97 …)
Experiment: micro-array; captured IgG, V5-tagged trimeric HA

Compared with B1, B2 is higher in “Trimeric HA Binding: RLU” value: 786 RLU for the first, 36300 RLU for the second.

With B3 the “Trimeric HA Binding: RLU” value was 36300 RLU.

Molecular target: recombinant soluble homotrimeric HA of A/duck/Yangzhou/02/2005 - H8N4 (Influenza A virus …)
Experiment: micro-array; captured IgG, V5-tagged trimeric HA

Going from B1 to B2, the “Trimeric HA Binding: RLU” value rises from 11600 RLU to 12500 RLU.

Molecular target: recombinant soluble homotrimeric HA of A/northern shoveler/California/HKWF115/2007 - H6N1 (Influenza A virus A/northern …)
Experiment: micro-array; captured IgG, V5-tagged trimeric HA

Compared with B1, B2 is higher in “Trimeric HA Binding: RLU” value: 2370 RLU for the first, 32500 RLU for the second.

With B3 the “Trimeric HA Binding: RLU” value was 28700 RLU.

Molecular target: recombinant soluble homotrimeric HA of A/Hong Kong/2108/03 (H9N2) (Influenza A virus A/Hong Kong/2108/03 …)
Experiment: microarray, BCC supernatant IgG, trimeric HA

First: B4
Second: B5
The “Trimeric HA Binding: RLU” value of the first is higher: 42000 RLU for the first, 16000 RLU for the second.

B6 was tested, and the “Trimeric HA Binding: RLU” value was 2280 RLU.

Molecular target: recombinant soluble homotrimeric HA of A/chicken/Vietnam/NCVD-016/08 (H5N1) (Influenza A virus …)
Experiment: microarray, BCC supernatant IgG, trimeric HA

First: B4
Second: B7
The “Trimeric HA Binding: RLU” value of the first is higher: 38200 RLU for the first, 46 RLU for the second.

First: B8
Second: B9
The “Trimeric HA Binding: RLU” value of the first is higher: 287 RLU for the first, 250 RLU for the second.

First: B10
Second: B11
The “Trimeric HA Binding: RLU” value of the first is lower: 100 RLU for the first, 41000 RLU for the second.

With B6 the “Trimeric HA Binding: RLU” value was 361 RLU.

Molecular target: recombinant soluble homotrimeric HA of A/Egypt/3300-NAMRU3/08 (H5N1) (Influenza A virus …)
Experiment: microarray, BCC supernatant IgG, trimeric HA

First: B10
Second: B11
The “Trimeric HA Binding: RLU” value of the first is lower: 11400 RLU for the first, 27500 RLU for the second.

Molecular target: recombinant soluble homotrimeric HA of A/Solomon Islands/3/06 (H1N1) (Influenza A virus A/Solomon …)
Experiment: microarray, BCC supernatant IgG, trimeric HA

Compared with B4, B7 is lower in “Trimeric HA Binding: RLU” value: 44800 RLU for the first, 327 RLU for the second.

Going from B12 to B9, the “Trimeric HA Binding: RLU” value falls from 511 RLU to 115 RLU.

Compared with B10, B11 is higher in “Trimeric HA Binding: RLU” value: 239 RLU for the first, 30000 RLU for the second.

Going from B5 to B6, the “Trimeric HA Binding: RLU” value falls from 16500 RLU to 204 RLU.

Molecular target: recombinant soluble homotrimeric HA of A/swine/Ontario/01911-2/99 (H4N6) (Influenza A virus …)
Experiment: microarray, BCC supernatant IgG, trimeric HA

Compared with B4, B7 is lower in “Trimeric HA Binding: RLU” value: 47500 RLU for the first, 119 RLU for the second.

Compared with B8, B9 is lower in “Trimeric HA Binding: RLU” value: 79 RLU for the first, 78 RLU for the second.

First: B10
Second: B11
The “Trimeric HA Binding: RLU” value of the first is lower: 1580 RLU for the first, 4500 RLU for the second.

B5 was tested, and the “Trimeric HA Binding: RLU” value was 7690 RLU.

Molecular target: recombinant soluble homotrimeric HA of A/duck/Yangzhou/02/05 (H8N4) (Influenza A virus …)
Experiment: microarray, BCC supernatant IgG, trimeric HA

Going from B4 to B11, the “Trimeric HA Binding: RLU” value rises from 38400 RLU to 46700 RLU.

Going from B5 to B6, the “Trimeric HA Binding: RLU” value falls from 28800 RLU to 407 RLU.

Molecular target: recombinant soluble homotrimeric HA of A/northern shoveler/California/HKWF115/07 (Influenza A virus A/northern …)
Experiment: microarray, BCC supernatant IgG, trimeric HA

Going from B4 to B7, the “Trimeric HA Binding: RLU” value falls from 46800 RLU to 511 RLU.

First: B10
Second: B11
The “Trimeric HA Binding: RLU” value of the first is lower: 814 RLU for the first, 27300 RLU for the second.

First: B5
Second: B6
The “Trimeric HA Binding: RLU” value of the first is higher: 30300 RLU for the first, 964 RLU for the second.

Molecular target: recombinant soluble homotrimeric HA of A/California/4/09 (H1N1) (Influenza A virus A/California/4/09 …)
Experiment: microarray, BCC supernatant IgG, trimeric HA

Going from B4 to B8, the “Trimeric HA Binding: RLU” value falls from 48800 RLU to 151 RLU.

First: B12
Second: B11
The “Trimeric HA Binding: RLU” value of the first is lower: 13100 RLU for the first, 45200 RLU for the second.

With B5 the “Trimeric HA Binding: RLU” value was 28000 RLU.

Molecular target: recombinant soluble homotrimeric HA of A/Wisconsin/67/05 (H3N2) (Influenza A virus A/Wisconsin/67/05 …)
Experiment: not given

Going from B4 to B7, the “Trimeric HA Binding: RLU” value falls from 48800 RLU to 18000 RLU.

First: B8
Second: B12
The “Trimeric HA Binding: RLU” value of the first is higher: 35000 RLU for the first, 1360 RLU for the second.

Going from B9 to B10, the “Trimeric HA Binding: RLU” value falls from 46500 RLU to 715 RLU.

Compared with B11, B5 is lower in “Trimeric HA Binding: RLU” value: 40800 RLU for the first, 5720 RLU for the second.

In the case of B6, the “Trimeric HA Binding: RLU” value is reported as 26300 RLU.

Molecular target: recombinant soluble homotrimeric HA of A/Netherlands/219/03 (H7N7) (Influenza A virus A/Netherlands/219/03 …)
Experiment: not given

Going from B4 to B7, the “Trimeric HA Binding: RLU” value falls from 49300 RLU to 327 RLU.

Compared with B12, B9 is lower in “Trimeric HA Binding: RLU” value: 661 RLU for the first, 610 RLU for the second.

First: B11
Second: B5
The “Trimeric HA Binding: RLU” value of the first is lower: 7520 RLU for the first, 8890 RLU for the second.

Molecular target: recombinant soluble homotrimeric HA of A/Indonesia/5/05 (H5N1) (Influenza A virus A/Indonesia/5/05 …)
Experiment: not given

With B6 the “Trimeric HA Binding: RLU” value was 9100 RLU.
